{"source": "paper PMC10787639", "about": "(Frontiers in Molecular Biosciences, 2023)", "system": "Ct PCNA", "experiment": "Protein X-ray crystallography of PIP peptide-Ct PCNA complex", "format": "binding, Chaetomium thermophilum", "details": "crystal structure, Ct PolD3 2.45 Å (PDB 8P9O), Ct Fen1 1.95 Å (PDB 8Q7I), 3_10 helix, Q-pocket, 2-fork plug", "data": [{"sequence": "GAQQARIEGFFKVIP [Ct Fen1 PIP peptide, 15mer Ct Fen1 peptide spanning residues 339–353, commercially synthesised (GenScript), purity 99.1%]", "values": [{"measurement": "binding mode on Ct PCNA", "result": "canonical binding mode"}, {"measurement": "binding mode on Ct PCNA", "setting": "listed as Ct Fen1 nuclease PIP peptide", "result": "canonical binding"}, {"measurement": "binding mode on Ct PCNA", "setting": "listed as Fen1 PIP peptide", "result": "strictly canonical"}]}]}
